Values of other authors as cited in US4923852A, “Aminoalkyl naphthalenediols as host resistance enhancers against viral infections” (Merck & Co., Inc., priority 1987, dated 1990).

System: AIDS or AIDS-related complex (ARC)
Details: clinical; cited from earlier work

Interleukin-2: Protein made by white blood cells that mediates production of interferon
efficacy in AIDS or ARC patients: not encouraging
